Article PMC7667638 (Journal of Medicinal Chemistry, 2020)

Protein sequences, listed by entry. Tags and fused reporters are not part of them. Residues count along the entry.
UniProt P35499, whole entry: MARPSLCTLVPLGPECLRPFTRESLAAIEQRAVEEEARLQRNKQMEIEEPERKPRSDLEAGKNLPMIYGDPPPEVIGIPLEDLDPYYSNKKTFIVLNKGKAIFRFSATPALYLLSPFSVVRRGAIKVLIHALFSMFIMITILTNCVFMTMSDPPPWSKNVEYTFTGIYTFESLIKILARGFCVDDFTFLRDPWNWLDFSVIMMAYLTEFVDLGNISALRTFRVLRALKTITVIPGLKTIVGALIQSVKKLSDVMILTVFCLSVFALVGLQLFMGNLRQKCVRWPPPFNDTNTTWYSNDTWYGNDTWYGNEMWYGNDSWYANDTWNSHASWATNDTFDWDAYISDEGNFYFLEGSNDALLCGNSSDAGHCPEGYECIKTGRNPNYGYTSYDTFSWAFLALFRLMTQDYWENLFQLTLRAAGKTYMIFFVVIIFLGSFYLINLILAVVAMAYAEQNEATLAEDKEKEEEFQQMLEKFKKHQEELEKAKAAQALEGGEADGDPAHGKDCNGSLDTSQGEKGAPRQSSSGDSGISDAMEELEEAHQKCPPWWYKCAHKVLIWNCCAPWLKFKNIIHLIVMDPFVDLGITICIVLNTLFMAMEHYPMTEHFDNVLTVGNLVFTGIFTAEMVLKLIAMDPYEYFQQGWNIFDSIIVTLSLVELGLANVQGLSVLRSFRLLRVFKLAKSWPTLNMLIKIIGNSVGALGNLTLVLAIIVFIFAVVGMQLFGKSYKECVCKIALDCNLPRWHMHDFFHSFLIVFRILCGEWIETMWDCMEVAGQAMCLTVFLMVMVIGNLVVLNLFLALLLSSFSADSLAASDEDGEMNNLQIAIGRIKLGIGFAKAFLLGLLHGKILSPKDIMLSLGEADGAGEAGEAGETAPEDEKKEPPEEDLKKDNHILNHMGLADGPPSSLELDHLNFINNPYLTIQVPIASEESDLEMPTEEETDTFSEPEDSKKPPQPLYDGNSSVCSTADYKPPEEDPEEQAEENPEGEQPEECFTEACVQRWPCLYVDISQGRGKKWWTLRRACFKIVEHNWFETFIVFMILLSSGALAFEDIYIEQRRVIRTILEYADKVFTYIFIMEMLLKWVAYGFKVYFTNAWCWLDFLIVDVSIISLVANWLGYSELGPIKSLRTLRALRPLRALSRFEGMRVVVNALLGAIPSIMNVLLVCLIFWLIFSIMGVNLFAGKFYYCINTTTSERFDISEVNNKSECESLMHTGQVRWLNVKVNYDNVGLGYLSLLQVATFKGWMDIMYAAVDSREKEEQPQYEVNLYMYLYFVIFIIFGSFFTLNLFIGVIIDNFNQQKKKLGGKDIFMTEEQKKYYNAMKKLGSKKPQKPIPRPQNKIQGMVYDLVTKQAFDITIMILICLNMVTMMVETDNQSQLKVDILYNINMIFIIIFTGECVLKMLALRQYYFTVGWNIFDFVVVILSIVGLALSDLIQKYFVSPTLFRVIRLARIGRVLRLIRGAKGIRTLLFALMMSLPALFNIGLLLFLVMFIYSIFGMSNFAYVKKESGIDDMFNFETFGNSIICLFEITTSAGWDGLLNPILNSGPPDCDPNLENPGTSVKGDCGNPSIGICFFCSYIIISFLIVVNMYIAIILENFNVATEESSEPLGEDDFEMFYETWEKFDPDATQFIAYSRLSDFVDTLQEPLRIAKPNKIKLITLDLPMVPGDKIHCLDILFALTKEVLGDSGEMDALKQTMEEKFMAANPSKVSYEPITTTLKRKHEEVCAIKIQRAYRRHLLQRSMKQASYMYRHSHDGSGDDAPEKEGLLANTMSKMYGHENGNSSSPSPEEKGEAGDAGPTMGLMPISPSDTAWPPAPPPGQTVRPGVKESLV
UniProt Q15858, whole entry: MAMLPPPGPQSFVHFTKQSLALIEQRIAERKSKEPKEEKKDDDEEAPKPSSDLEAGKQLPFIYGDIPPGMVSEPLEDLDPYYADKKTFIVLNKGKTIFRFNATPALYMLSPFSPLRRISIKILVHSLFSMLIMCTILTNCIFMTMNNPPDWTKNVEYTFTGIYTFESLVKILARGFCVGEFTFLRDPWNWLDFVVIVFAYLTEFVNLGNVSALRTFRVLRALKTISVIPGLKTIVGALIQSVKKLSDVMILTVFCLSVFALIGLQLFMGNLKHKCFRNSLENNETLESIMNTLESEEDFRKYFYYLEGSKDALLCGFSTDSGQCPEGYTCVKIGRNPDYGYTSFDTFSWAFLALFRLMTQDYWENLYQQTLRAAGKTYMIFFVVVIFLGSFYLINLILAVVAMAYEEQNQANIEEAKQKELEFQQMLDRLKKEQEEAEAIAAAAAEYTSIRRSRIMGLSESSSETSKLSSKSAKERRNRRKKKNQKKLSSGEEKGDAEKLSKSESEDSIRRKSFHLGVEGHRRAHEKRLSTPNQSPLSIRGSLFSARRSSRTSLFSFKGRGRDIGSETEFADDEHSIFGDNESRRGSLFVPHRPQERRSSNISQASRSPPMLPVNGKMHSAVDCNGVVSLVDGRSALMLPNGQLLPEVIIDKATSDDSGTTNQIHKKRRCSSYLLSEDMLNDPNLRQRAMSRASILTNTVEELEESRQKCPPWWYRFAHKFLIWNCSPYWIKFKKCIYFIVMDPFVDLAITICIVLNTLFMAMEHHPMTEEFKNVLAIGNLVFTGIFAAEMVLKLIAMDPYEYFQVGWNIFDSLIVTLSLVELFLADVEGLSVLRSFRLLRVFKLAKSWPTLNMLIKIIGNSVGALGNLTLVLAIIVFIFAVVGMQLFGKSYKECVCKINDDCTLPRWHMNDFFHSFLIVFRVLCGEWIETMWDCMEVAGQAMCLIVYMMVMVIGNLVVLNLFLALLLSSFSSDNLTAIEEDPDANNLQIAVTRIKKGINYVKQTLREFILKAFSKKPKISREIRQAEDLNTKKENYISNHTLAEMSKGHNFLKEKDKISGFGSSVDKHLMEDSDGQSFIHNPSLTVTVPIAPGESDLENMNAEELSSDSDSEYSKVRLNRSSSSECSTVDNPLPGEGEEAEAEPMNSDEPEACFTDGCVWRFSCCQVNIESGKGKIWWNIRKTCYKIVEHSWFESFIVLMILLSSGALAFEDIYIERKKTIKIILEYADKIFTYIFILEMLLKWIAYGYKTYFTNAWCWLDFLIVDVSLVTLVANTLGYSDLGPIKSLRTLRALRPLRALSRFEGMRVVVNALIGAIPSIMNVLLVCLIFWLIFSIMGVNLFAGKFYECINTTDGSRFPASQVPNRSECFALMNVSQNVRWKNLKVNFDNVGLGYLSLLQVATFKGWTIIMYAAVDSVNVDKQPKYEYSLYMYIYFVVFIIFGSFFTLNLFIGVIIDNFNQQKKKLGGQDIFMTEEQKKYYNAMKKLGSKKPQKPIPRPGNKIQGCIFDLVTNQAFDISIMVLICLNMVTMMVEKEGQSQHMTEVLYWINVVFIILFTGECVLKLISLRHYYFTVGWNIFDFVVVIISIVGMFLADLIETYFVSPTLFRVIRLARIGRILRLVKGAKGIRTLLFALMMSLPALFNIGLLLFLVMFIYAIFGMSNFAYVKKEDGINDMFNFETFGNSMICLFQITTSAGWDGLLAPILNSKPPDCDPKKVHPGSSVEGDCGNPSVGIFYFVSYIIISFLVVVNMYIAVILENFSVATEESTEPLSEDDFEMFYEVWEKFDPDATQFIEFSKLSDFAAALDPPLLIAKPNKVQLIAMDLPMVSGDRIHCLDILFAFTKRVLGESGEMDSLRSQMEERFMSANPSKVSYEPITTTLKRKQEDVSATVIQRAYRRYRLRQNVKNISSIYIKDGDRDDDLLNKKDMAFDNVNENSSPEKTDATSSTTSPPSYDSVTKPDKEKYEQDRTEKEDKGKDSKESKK
UniProt Q07699, 19-218 partner limits assumed: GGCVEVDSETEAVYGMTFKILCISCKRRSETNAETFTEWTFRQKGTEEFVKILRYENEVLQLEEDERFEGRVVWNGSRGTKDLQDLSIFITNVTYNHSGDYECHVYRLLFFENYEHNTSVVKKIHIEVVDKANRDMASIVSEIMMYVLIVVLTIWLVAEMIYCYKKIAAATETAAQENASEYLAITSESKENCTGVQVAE

How the values were obtained:
hNaV1.4 = hNaV1.4 (Homo sapiens, UniProt P35499); assay: automated whole-cell patch-clamp (QPatch 16X), concentration–response inhibition of Na+ currents; type: cell-based
hNaV1.7 = hNaV1.7 (Homo sapiens, UniProt Q15858); assay: as above; type: cell-based; details: ↑ fold increase in IC50 relative to ligand 1

C#CC[C@H](N)C(=O)NCCOCCOCCOCCOCCC(=O)NCCOCCOCCOCCOCCC(=O)NCCOCCOCCOCCOCCC(=O)NCCOCCOCCOCCOCCC(=O)N/N=C/C(=O)NCC(=O)N[C@H]1CSSC[C@@H]2NC(=O)[C@@H]3CSSC[C@@H](C(=O)N[C@@H](CCCCN)C(=O)N[C@@H](Cc4c[nH]c5ccccc45)C(=O)N[C@@H](CCC(N)=O)C(=O)N[C@H](C(N)=O)[C@@H](C)CC)NC(=O)[C@H](Cc4c[nH]c5ccccc45)NC(=O)[C@H](CCCNC(=N)N)NC(=O)[C@H]([C@@H](C)O)NC(=O)[C@H](CCCCN)NC(=O)[C@H](CCCNC(=N)N)NC(=O)[C@H](CO)NC(=O)[C@H](CSSC[C@H](NC(=O)[C@H](C)NC(=O)[C@H](CCCCN)NC(=O)[C@H](Cc4ccccc4)NC(=O)[C@H]([C@@H](C)CC)NC(=O)CNC(=O)[C@H](CC(C)C)NC1=O)C(=O)N[C@@H](CC(N)=O)C(=O)N1CCC[C@H]1C(=O)N[C@@H](CO)C(=O)N[C@@H](CC(N)=O)C(=O)N[C@@H](CC(=O)O)C(=O)N[C@@H](CCC(N)=O)C(=O)N3)NC(=O)[C@H](C(C)C)NC(=O)[C@H](CC(C)C)NC(=O)[C@H](CCCCN)NC(=O)[C@H](CO)NC(=O)[C@H](CO)NC(=O)[C@H](CCCCN)NC2=O
fold decrease in inhibitory potency on PEG80 linker attachment, NaV1.4 (hNaV1.4; [K-KIIIA]-[PEG80] compared to AzK-KIIIA, [m3-HwTx-IV]-[PEG80] compared to S-m3-HwTx-IV): 1.9 fold
IC50 relative to 1, hNaV1.4 (hNaV1.4; ↑ fold increase in IC50 relative to ligand 1): 45.4× ↑
IC50 relative to 1, hNaV1.7 (fold increase) (hNaV1.7): 1.3× ↑
